Patent US9988424 (DUKE UNIVERSITY, dated 2018)

Key:
C.CAP206 gp140CF.12 = target: T1, C.CAP206 gp140CF.12 (HIV-1); test: ELISA
T1 chain: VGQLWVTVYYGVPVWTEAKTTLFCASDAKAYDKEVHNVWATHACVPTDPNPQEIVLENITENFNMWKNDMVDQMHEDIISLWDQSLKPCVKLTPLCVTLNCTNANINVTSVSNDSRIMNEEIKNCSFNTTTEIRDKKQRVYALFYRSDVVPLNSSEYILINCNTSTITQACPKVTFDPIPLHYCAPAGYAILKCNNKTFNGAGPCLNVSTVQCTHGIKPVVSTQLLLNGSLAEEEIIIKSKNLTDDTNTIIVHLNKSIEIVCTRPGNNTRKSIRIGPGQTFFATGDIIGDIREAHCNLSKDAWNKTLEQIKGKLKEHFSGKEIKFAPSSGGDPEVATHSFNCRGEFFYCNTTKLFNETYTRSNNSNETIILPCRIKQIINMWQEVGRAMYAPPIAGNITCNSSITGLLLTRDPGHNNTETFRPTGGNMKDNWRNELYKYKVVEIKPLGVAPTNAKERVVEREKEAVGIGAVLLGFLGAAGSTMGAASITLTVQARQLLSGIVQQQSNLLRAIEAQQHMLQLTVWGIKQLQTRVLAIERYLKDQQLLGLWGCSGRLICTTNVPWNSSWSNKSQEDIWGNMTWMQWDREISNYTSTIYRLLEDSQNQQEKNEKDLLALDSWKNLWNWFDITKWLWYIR

B. 684-6 gp140C = target: T2, B. 684-6 gp140C; test: ELISA, OD405 at 10 ug/ml mAb
T2 chain: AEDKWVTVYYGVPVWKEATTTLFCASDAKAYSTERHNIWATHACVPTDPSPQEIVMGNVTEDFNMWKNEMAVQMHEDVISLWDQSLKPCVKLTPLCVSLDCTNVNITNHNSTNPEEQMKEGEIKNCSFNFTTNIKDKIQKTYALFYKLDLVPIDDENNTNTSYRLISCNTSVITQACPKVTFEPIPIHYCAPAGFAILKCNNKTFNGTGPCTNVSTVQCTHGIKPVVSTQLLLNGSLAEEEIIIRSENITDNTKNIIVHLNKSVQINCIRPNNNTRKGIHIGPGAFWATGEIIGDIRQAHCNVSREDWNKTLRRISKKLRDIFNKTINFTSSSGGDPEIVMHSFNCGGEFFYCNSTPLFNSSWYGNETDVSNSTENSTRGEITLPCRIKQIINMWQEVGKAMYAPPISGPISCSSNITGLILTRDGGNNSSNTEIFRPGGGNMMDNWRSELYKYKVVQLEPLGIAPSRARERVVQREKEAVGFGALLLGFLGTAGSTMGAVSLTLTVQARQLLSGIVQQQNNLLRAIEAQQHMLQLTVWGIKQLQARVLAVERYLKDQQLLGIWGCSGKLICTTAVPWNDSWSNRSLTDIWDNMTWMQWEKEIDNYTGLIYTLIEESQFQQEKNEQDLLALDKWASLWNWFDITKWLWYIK

G.con gp140CF = target: T3, G.con gp140CF; test: ELISA, OD405
T3 construct: also called G.con.env03 gp140CF
T3 chain: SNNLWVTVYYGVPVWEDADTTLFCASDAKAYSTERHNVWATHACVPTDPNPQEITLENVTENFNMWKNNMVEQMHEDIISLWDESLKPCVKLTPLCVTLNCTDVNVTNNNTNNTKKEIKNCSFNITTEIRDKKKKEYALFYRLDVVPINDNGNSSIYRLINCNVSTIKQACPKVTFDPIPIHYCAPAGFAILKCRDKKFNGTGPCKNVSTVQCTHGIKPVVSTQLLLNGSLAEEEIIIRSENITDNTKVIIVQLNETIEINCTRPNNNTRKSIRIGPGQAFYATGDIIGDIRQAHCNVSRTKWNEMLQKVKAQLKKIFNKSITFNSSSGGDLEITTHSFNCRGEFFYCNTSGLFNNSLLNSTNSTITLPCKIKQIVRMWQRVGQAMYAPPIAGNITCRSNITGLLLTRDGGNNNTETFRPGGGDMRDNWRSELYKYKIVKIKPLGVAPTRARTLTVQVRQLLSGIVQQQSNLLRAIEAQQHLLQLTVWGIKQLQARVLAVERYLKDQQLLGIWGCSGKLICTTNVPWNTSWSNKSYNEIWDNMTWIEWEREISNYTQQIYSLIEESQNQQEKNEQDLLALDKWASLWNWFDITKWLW

B.HXB/BAL gp140CFI = target: T4, B.HXB/BAL gp140CFI (HIV-1, UniProt P04578 33-680); test: ELISA, OD405
T4 construct: also called B.HxB/Ba gp140 CFI

B. 681-7 gp140C = target: T5, B. 681-7 gp140C; test: ELISA, OD405
T5 chain: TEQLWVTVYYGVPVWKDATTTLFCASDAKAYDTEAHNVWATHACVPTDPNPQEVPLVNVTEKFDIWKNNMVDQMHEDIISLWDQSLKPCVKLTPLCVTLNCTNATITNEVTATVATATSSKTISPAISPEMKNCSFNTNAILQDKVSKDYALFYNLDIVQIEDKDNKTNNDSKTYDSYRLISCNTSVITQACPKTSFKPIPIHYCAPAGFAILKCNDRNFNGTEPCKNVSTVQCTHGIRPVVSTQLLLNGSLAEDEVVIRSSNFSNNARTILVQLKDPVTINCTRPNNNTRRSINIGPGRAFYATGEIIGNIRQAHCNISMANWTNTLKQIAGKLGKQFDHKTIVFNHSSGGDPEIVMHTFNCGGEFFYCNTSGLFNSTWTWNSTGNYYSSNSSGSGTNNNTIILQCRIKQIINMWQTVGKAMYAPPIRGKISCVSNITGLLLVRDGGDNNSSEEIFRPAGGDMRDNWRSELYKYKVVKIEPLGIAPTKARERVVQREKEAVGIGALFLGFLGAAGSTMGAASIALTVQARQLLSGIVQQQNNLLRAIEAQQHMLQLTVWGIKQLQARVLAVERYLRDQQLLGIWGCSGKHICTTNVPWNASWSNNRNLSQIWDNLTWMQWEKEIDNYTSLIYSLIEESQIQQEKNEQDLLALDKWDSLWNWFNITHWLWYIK

B.con gp140CF = target: T6, B.con gp140CF; test: ELISA, OD405
T6 construct: also called B.con.env03 gp140CF

B1: CH58 (antibody, V domains shown)
VH: EVQLVQSGAEVKKPGESLKISCKGSGYRFTSYWIVWVRQMPGKGLEWMGIIYPGDFDTKYSPSFQGQVTISADKSISTAYLQWSSLKASDTAMYYCARLGGRYYHDSSGYYYLDYWGQGTLVTVSS
VL: NFMLTQPHSVSESPGKTVTISCTRSSGSVASDYVQWYQQRPGSAPTTVVYEDNQRPSGVPDRFSGSIDSSSNSASLTISGLKTEDEADYYCQSYDNSSWVFGGGTKLTVL
EC50 (C.CAP206 gp140CF.12): 1 nM
binding result (B. 684-6 gp140C): binds
binding result (G.con gp140CF): no binding (tested: 10 ug/ml)
binding result (B.HXB/BAL gp140CFI): no binding (tested: 10 ug/ml)
binding result (B. 681-7 gp140C): no binding (tested: 10 ug/ml)
binding result (B.con gp140CF): no binding (tested: 10 ug/ml)
